Reference: patent publication US20220356229A1 (published 2022)
Numbering of substitutions follows the chain as printed. Read-outs that look alike come from different tables or passages of the source.

Columns and labels:
[1] = molecular target: T1, SARS-CoV-2 Spike (S) protein, wild type, full length (SARS-CoV-2, UniProt P0DTC2 14-1273); assay: flow cytometry, CHO cells expressing full-length Spike
[2] = molecular target: T1, SARS-CoV-2 Spike (S) protein, wild …; assay: as above; remark: listed apart in the source
WIV1 full length Spike = WIV1 full length Spike (WIV1); assay: multiplexed bead assay, flow cytometry, antibody at […]
[3] = molecular target: T2, SARS-CoV-2 Spike (S) protein, wild type, full length (SARS-CoV-2, UniProt P0DTC2 14-1208); assay: bead assay, flow cytometry
[4] = molecular target: T2, SARS-CoV-2 Spike (S) protein, wild …; assay: bead assay, flow cytometry; remark: listed apart in the source
[5] = molecular target: T2, SARS-CoV-2 Spike (S) protein, wild …; assay: bead assay, flow cytometry; remark: listed apart in the source

B1: antibody 501 (antibody, V domains shown)
VH: QVQLVQSGAEVKKPGASVKVSCKASGYTFTSYYVHWVRQAPGQSLEWMGVISPSTGSTTYAQNFQGRVTMTRDTSTTTVYMELSSLRSEDTAVYYCARDDYYDSTRYFDLWGRGTLVTVSS
VL: QSALTQPASVSGSPGQSISFSCTGTSSDIGAYNYVSWYQQHPGRAPKLMIYDVGNRPSGVSNRFSGSKSGNTASLTISGLQAEDEADYYCSSYTSSSTQVFGTGTKVTVL
- median fluorescence, fold over isotype control [1]: 32.4 fold over isotype
- median fluorescence, fold over isotype control [2]: 4.87 fold over isotype

B2: antibody 513 (antibody, V domains shown)
VH: QVQLVESGGGVVQPGRSLRLSCAASGFTFSSYAMHWVRQAPGKGLEWVAVISYDGSNKYYADSVKGRFTISRDNSKNTLYLQMNSLRAEDTAVYYCARAGSGSYYNWFDPWGQGTLVTVSS
VL: QSALTQPASVSGSPGQSITISCTGTSSDVGGYNYVSWYQQHPGKAPKLMIYEVSNRPSGVSNRFSGSKSGNTASLTISGLQAEDEADYYCSSYTSSSTPYVFGTGTKVTVL
- median fluorescence, fold over isotype control [1]: 8.42 fold over isotype
- median fluorescence, fold over isotype control [2]: 7.37 fold over isotype

B3: antibody 515 (antibody, V domains shown)
VH: EVQLVESGGGLVKPGGSLRLSCAASGFTFSSYSMNWVRQAPGKGLEWVSSISSSSSYIYYADSVKGRFTISRDNAKNSLYLQMNSLRAEDTAVYYCASIAAAGTLYYYYGMDVWGQGTTVTVSS
VL: not shown
- median fluorescence, fold over isotype control [1]: 10.4 fold over isotype
- median fluorescence, fold over isotype control [2]: 3.93 fold over isotype

B4: antibody 520 (antibody, V domains shown)
VH: QVQLVESGGGVVQPGRSLRLSCAASGFTFSSYAMHWGRQAPGKGLEWVAVISYDGSNKYYADSVKGRFTISRDNSKNTLYLQMNSLRAEDTAVYYCARDGGSGWLLVGNWFDPWGQGTLVTVSS
VL: B2 VL with E52D, S97I, P99L
- median fluorescence, fold over isotype control [1]: 8.9 fold over isotype
- median fluorescence, fold over isotype control [2]: 7.29 fold over isotype

B5: antibody 525 (antibody, V domains shown)
VH: QVQLVESGGGVVQPGRSLRLSCAASGFTFSSYAMHWVRQAPGKGLEWVTVISYNGRNKYYADSVKGRFTISRDNSKNTLYLQMNSLRAEDTAVYWCAREGLGAIVVGLDYWGQGTLVIVSS
VL: not shown
- median fluorescence, fold over isotype control [1]: 8.7 fold over isotype
- median fluorescence, fold over isotype control [2]: 7.47 fold over isotype

B6: mAb 896 (antibody, V domains shown)
VH: EVQLVESGGGVVQPGGSLRLSCAASGFTFDDYAMHWVRQVPGKGLEWVSLISGDGGSTYYADSVKGRFTISRDNSKNSLYVQMNSLRTEDTALYYCVKDRGGSGWDLNHYYYGMDVWGQGTTVTVSS
VL: DIQLTQSPSFLSASVGDRVTVTCRASQGISSYLAWYQQKPGKAPKLLIYAAYTLQSGVPSRFSGSGSETEFTLTISSLQPEDFATYYCQQVKSYPLTFGGGTKVEIKR
- median fluorescence intensity, fold over isotype control (WIV1 full length Spike): 2.34 fold over isotype

B7: mAb 923 (antibody, V domains shown)
VH: EVQLVESGGGVVRPGGSLRLSCAASGFIFDDYDMTWVRQAPGKGLEWVSGISWNGGNTGYADSVKGRFTISRDNAKNSLYLQMNSLRAEDTALYHCAVIMSPIPRYSGYDWAGGAFDIWGQGTMVTVSS
VL: SSELTQDPAVSVALGQTVRITCQGDSLRSYYASWYQQKPGQVPILVIYDKNNRPSGIPDRFSGSSSGNTASLTITGAQAEDEADYYCNSRDSSGNAVVFGGGTKLTVLG
- median fluorescence intensity, fold over isotype control (WIV1 full length Spike): 974 fold over isotype

B8: mAb 936 (antibody, V domains shown)
VH: EVQLVESGGGLVQPGRSLTLSCAGSGFTFDDYAMHWVRQAPGKGLEWVSGISWNSGSIGYADSVKGRFTISRDNAKNSLYLQMNSLRAEDTALYYCAKDVSYDSSGYYNNAFDIWGQGTMVTVSS
VL: B6 VL with V21I, Y52S, E68G, V91L, K92Y, L96V, G100Q, K103R, V104L
- median fluorescence intensity, fold over isotype control (WIV1 full length Spike): 1.9 fold over isotype

B9: mAb 1015 (antibody, V domains shown)
VH: EVQLVESGGGLVQPGGSLRLSCAASGFTFSSYWMHWVRQAPGKGLVWVSHINSDGSSTSYADSVKGRFTISRDNAKNTLYLQMNSLRAEDTAVYYCARGLRYFDLDVWGQGTTVTVSS
VL: QSVLTQPPSVSEAPRQRVTISCSGSSSNIGNNAVNWYQQLPGKAPKLLIFYDDLLPSGVSDRFSGSKSGTSASLAISGLQSEDEADYYCAAWDDSLNGGVFGGGTKLTVLG
- median fluorescence intensity, fold over isotype control (WIV1 full length Spike): 1.64 fold over isotype

B10: mAb 1036 (antibody, V domains shown)
VH: QVQLVQSGAEVKKPGSSVKVSCKASGGTLSSYTISWVRQAPGQGLEWMGRIIPILGIADYAQKFQGRVTITADKSTTTAYMDLSSLGSEDTALYYCASAPKDWSSGFDYYYGMDVWGQGTMVTVSS
VL: DIVMTQTPLSLSVTPGQPASISCKSSQSLLNSDGKTYLYWYLQKAGQPPQLLIYEVSNRFSGVPERFSGSGSGTDFTLKISRVEAEDVGVYYCMQSVQLPPYTFGQGTKLEITR
- median fluorescence intensity, fold over isotype control (WIV1 full length Spike): 2.33 fold over isotype

B11: mAb 1037 (antibody, V domains shown)
VH: QITLKESGPTLVKPTQTLTLTCTFSGFSLSTSGVGVGWIRQPPGKALEWLALIYWDDDKRYSPSLKSRLTITKDTSKNQVVLTMTNMDPVDTATYYCAHHTITRINDYWGQGTLVTVSS
VL: QSALTQPASVSGSPGQSITISCTATSSDVGAYNYVSWYQQHPGKAPKLMIYDVSKRPSGVSNRFSGSKSGNTASLTISGLQAEDEADYYCSSYTSSSTVFGGGTKLTVLG
- median fluorescence intensity, fold over isotype control (WIV1 full length Spike): 7.79 fold over isotype

B12: mAb 1135 (antibody, V domains shown)
VH: EVQLVESGGGLVQPGRSLRLSCAASGLTFEDYAMHWVRQVPGKGLEWVSGISWNSGTIGYADSVKGRFIISRDNAKNSLYLQMRSLRAEDTALYYCAKDVGFGELLYYAFDIWGQGTMVTVSS
VL: QSALTQPASVSGSPGQSITISCTGTSSDVGGYNYVSWYQQHPGKAPKLMIYDVSNRPSGVSNRFSGSKSGNTASLTISGLQAEDEADYYCSSYTSSSTVVFGGGTKLTVLG
- median fluorescence intensity, fold over isotype control (WIV1 full length Spike): 2.85 fold over isotype

B13: mAb 1149 (antibody, V domains shown)
VH: QVQLVQSGAEVKKPGASVKVSCKASGYTFASYDINWVRQATGQGPEWMGWMIPNIGNTGYAQKFQGRVTMTRNTSISTAYMELSSLTSEDTAVYYCARVSRLFNDFGLRHEAPVDFWGQGTRVTVSS
VL: QSVLTQPPSVSGAPGQRVTISCTGSSSNIGAGYDVHWYQQLPGTAPKLLIYGYSSRPSGVPDRFSGSKSGTSASLAITGLQAEDEADYYCQSYDSSLSVLFGGGTKLTVLG
- median fluorescence intensity, fold over isotype control (WIV1 full length Spike): 2.67 fold over isotype

B14: mAb 1444 (antibody, V domains shown)
VH: QVQLVQSGAEVKKPGASVKVSCKASGYTFTAYYMHWVRQAPGQGLEWMGWINPNSDDTNYAQKFQGRVTMTRDTSISTAYMELSRLRSDDTAVYYCAREEGVFTIGDRYFDLWGRGTLVSVSS
VL: QTVVTQEPSFSVSPGGTVTLTCGLSSGSVSTSYYPSWYQQTPGQAPRTLIYNTNTRSSGVPDRFSGSILGNKAALTITGAQADDESDYYCVLYMGSGIWVFGGGTKLTVLG
- median fluorescence intensity, fold over isotype control (WIV1 full length Spike): 4.68 fold over isotype

B15: mAb 1495 (antibody, V domains shown)
VH: QVQLVESGGGVVQPGRSLRLSCTASGFTFSSYAMHWVRQAPGKGLEWVAVISYDGNNKYYGDSVKGRFTISRDNSKNTLYLQMNSLRAEDTAVYYCAKGADTPHYSGYHFLSVGYYFYGMDVWGQGTTVTVSS
VL: DIQMTQSPSSLSASVGDRVTITCRASQSISYYLNWYQQKPGKAPQLLIYAASSLQSGVPSRFSGSRSGTDFTLTISSLQPEDFATYYCQQSYSTPFTFGPGTKVDIKR
- median fluorescence intensity, fold over isotype control (WIV1 full length Spike): 4.8 fold over isotype

B16: mAb 1538 (antibody, V domains shown)
VH: EVQLLESGGGLVQPGGSLRLSCAASGFTFSSYAMSWVRQAPGKGLEWVSGISDSGGSTYYADYVKGRFTISRDNSKDTLYLQMNSLRAEDTAVYYCAKDRGNEYALTHYYYYAMDVWGQGTTVTVSS
VL: DIQMTQSPSSLSASVGDRVTITCRASQSISSYLNWYQQKPGKAPKLLIYAAYSLQSGVPSRFSGGGSGTDFTLTISSLQPEDFATYFCQQSYSTPITFGQGTRLEIKR
- median fluorescence intensity, fold over isotype control (WIV1 full length Spike): 2.71 fold over isotype

B17: mAb 1585 (antibody, V domains shown)
VH: QVQLVESGGGVVQPGRSLRLSCAASGFTFSRFTLHWVRQAPGKGLEWVAVISYDGSNKYYADSVKGRFTISRDNSKSTLYLQMNSLRAEDTGVYYCARDPSTVTGYFDYWGQGTLVTVSS
VL: SYVLTQPPSVSVAPGKTAKISCGGDSIGSKSVHWYQQKPGQAPVLVIYYDNDRPSGIPERFSGSNSGNTATLTISRVEAGDEADYYCQVWDIGVVFGGGTKLTVLG
- median fluorescence intensity, fold over isotype control (WIV1 full length Spike): 85.1 fold over isotype

B18: antibody 272 (antibody, V domains shown)
VH: QVQLVQSGAEVKKPGASVKVSCKASGYTFTTYYMHWVRQAPGQGLEWMGIINPSGGSASYAQKFQGRVTMTRDTSTSTVYMELSSLRSEDTAVYYCARDHTLVNGDYEYYYGMDVWGQGTTVTVSS
VL: SYELTQPPSVSVSPGQTARITCSGDALPKQYAYWYQQKPGQAPVSVIYKDSERPSGIPERISGSSSGTTVTLTISGVQAEDEADYYCQSADSSGTYLVFGGGTKLTVL
- bead binding signal (fold over isotype) [3]: 1350 fold over isotype
- bead binding signal (fold over isotype) [4]: 679 fold over isotype
- bead binding signal (fold over isotype) [5]: 852 fold over isotype

B19: antibody 274 (antibody, V domains shown)
VH: QVQLVESGGGVVQPGRSLRLSCAASGFTFSSYAMHWVRQAPGKGLEWVAVISYDGSNKYYADSVKGRFTISRDNSKNTLYLQMNSLRAEDTAVYYCARDSESDSSGWLHYFDYWGQGTLVTVSS
VL: not shown
- bead binding signal (fold over isotype) [3]: 944 fold over isotype
- bead binding signal (fold over isotype) [4]: 127 fold over isotype
- bead binding signal (fold over isotype) [5]: 393 fold over isotype
